A mixed list of measured activities; the numbers were collected in NIAID ChemDB.

Shared fields: tests in culture; organism: HIV-1; cells: PBMC; measure: EC50

Neighbouring rows are from separate reports. ECn is the concentration giving n% inhibition of infection, replication or growth. Two numbers with a dash give a range or band. Blank or dashed fields: not listed here.

SMILES,strain or isolate,changes,method,conditions,result
C[C@]1(/C=C/P(=O)(O)O)CO[C@@H](n2cnc3c(=O)[nH]c(N)nc32)C1,LAI,,,,70 µM
Cc1cn([C@H]2O[C@H](CO)C=C2F)c(=O)nc1N,LAV,,RT activity,,>100 µM
Nc1ncnc2c1ncn2[C@H]1CC[C@@](F)(CCP(=O)(O)O)C1,LAI,,RT activity,,47.9 µM
Cc1cn([C@H]2C[C@H](N=[N+]=[N-])[C@@H](CO)O2)c(=O)[nH]c1=O,D34,,p24,,<0.04 µM
CC(C)(C)NC(=O)[C@@H]1C[C@@H]2CCCC[C@@H]2CN1C[C@@H](O)[C@H](Cc1ccccc1)NC(=O)[C@H](CC(N)=O)NC(=O)c1ccc2ccccc2n1,ERS104PRE(PR-L63P) Clinical isolate,PR-L63P,p24,,0.01 µM
Nc1nc(=O)n([C@@H]2CS[C@H](CO)O2)cc1F,XXBRU PITT,,RT activity,,0.0046 µM
c1cc(CN2CCCNCCNCCCNCC2)ccc1CN1CCCNCCNCCCNCC1,NL4-3,,p24,,0.003 µg/mL
CCC[C@@]1(CCc2ccccc2)CC(O)=C([C@H](CC)c2cccc(NS(=O)(=O)c3ccc(C(F)(F)F)cn3)c2)C(=O)O1,Isolate N. Amer 1,,p24,,<0.17 µM
C[C@@H]1O[C@@H](OC[C@H]2O[C@@H](Oc3c(-c4ccc(OS(=O)(=O)O)c(OS(=O)(=O)O)c4)oc4cc(OS(=O)(=O)O)cc(OS(=O)(=O)O)c4c3=O)[C@H](OS(=O)(=O)O)[C@@H](OS(=O)(=O)O)[C@@H]2OS(=O)(=O)O)[C@H](OS(=O)(=O)O)[C@H](OS(=O)(=O)O)[C@H]1OS(=O)(=O)O,R5 primary isolate,,p24,,13.1 µM
N#Cc1cn(C[C@H](CF)OCP(=O)(O)O)c2nc(N)[nH]c(=O)c12,NL4-3,,luciferase,,>100 µM
CC(C)(C)C(=O)c1sc(C(=O)NCc2ccccc2)c(O)c1O,GE98002 X4,,p24,,0.2 µM
Cc1cn([C@H]2C[C@H](N=[N+]=[N-])[C@@H](CO)O2)c(=O)[nH]c1=O,C081590,,p24,,0.01 µM
Cc1cn([C@H]2C[C@H](N=[N+]=[N-])[C@@H](CO)O2)c(=O)[nH]c1=O,3TC-resistant (RT M184V) Clinical isolate,RT-M184V,p24,,0.0005 µM
O=c1[nH]cnc2c1ncn2[C@H]1CC[C@@](F)(CCP(=O)(O)O)C1,LAI,,RT activity,,10.3 µM
O=c1[nH]cnc2c1ncn2[C@H]1CC[C@@H](CO)O1,LAV,,RT activity,,0.46 µM
CC[C@@H](C)C(=O)O[C@H]1C(=O)O[C@@H]2C[C@H]3C(C)=CC(=O)[C@@H](O)[C@]3(C)[C@H]3[C@@H](O)[C@H](O)[C@@]4(C)OC[C@]32[C@@H]14,,,p24,,0.57 µM
Cc1cn([C@H]2C[C@H](N=[N+]=[N-])[C@@H](COP(=O)(O)OC[C@H]3CC[C@@H](n4cnc5c(N)ncnc54)O3)O2)c(=O)[nH]c1=O,LAV,,RT activity,,0.00003 µM
O=C1N(Cc2ccc(CO)cc2)[C@H](Cc2ccccc2)[C@H](O)[C@@H](O)[C@@H](Cc2ccccc2)N1Cc1ccc(CO)cc1,Clinical isolate D2,,p24,,0.018 µM
Cc1cn([C@H]2C[C@H](N=[N+]=[N-])[C@@H](COP(=O)(O)OC[C@@H]3CC[C@H](n4cnc5c(=O)[nH]cnc54)O3)O2)c(=O)[nH]c1=O,LAV,,RT activity,,0.00007–0.00014 µM
Oc1ccc(/C=C/c2cc(O)cc(O)c2)cc1,EJC-R2,,p24,clinical isolate,>10 µM
CC(C)(C)NC(=O)[C@@H]1CN(Cc2cccnc2)CCN1C[C@@H](O)C[C@@H](Cc1ccccc1)C(=O)N[C@H]1c2ccccc2C[C@H]1O,ERS104PRE(PR-L63P) Clinical isolate,PR-L63P,p24,,0.013 µM
Nc1ncnc2c1ncn2CCOCP(=O)(O)O,LAI,,RT activity,,0.42 µM
C[C@H](Cn1cnc2c(N)ncnc21)OCP(=O)(O)O,NL4-3,,luciferase,,0.49 µM
Cc1cn([C@H]2C[C@H](N=[N+]=[N-])[C@@H](CO)O2)c(=O)[nH]c1=O,1495-2 (RT K70R T215Y/F) NRTI resistant,RT-K70R T215Y/F,p24,,0.0294 µM
CCCCCOC(=O)C[C@H](NP(=O)(CO[C@@H](CF)Cn1ccc2c(=O)[nH]c(N)nc21)Oc1ccccc1)C(=O)OCCCCC,NL4-3,,luciferase,,4.8 µM
S=C(NCCCn1ccnc1)Nc1nccs1,A17,RT-Y181C,p24,,>100 µM
CC(C)OC(=O)[C@H](C)N[P@](=O)(CO[C@H](C)Cn1cnc2c(N)ncnc21)Oc1ccccc1,NL4-3,,luciferase,,0.0007 µM
O=C(/C=C(\O)c1ncn[nH]1)c1ccc(Cc2ccc(F)cc2)o1,,,,,0.14 µM
C[C@]1(CCP(=O)(O)O)CO[C@@H](n2cnc3c(N)ncnc32)C1,LAI,,,,22.2 µM
Cc1cn([C@H]2C[C@H](N=[N+]=[N-])[C@@H](CO)O2)c(=O)[nH]c1=O,D148/86,,p24 / ELISA,,0.02 µM
Cc1ccc(CCNC(=S)Nc2ccc(Br)cn2)cc1,A17,RT-K103N Y181C,p24,,>100 µM
Cc1cn([C@H]2C[C@H](N=[N+]=[N-])[C@@H](CO)O2)c(=O)[nH]c1=O,IIIB,,p24,,<0.025 µM
CCO/N=C(\c1ccc(Br)cc1)C1CCN(C2(C)CCN(C(=O)c3c(C)cc[n+]([O-])c3C)CC2)CC1,301657 R5 CLADE B,,p24,,0.005 µM
O=C1c2ccccc2C2(c3ccccc3)SCCN12,IIIB,,p24 / ELISA,,0.536 µM
Cc1cn([C@H]2C[C@H](N=[N+]=[N-])[C@@H](CO)O2)c(=O)[nH]c1=O,LAI Laboratory isolate,,RT activity,,0.004 µM
CC(C)c1cc2c(c(O)c1O)[C@@]1(C(=O)O)CCCC(C)(C)C1CC2,clinical isolate 1(TM MDR X4),PR-L10I K14R R41K M46L I54V L63P A71V V82A L90M I93L,,,>1 µM

Repeating the first 5 entries:

SMILES | strain or isolate | changes | method | conditions | result
C[C@]1(/C=C/P(=O)(O)O)CO[C@@H](n2cnc3c(=O)[nH]c(N)nc32)C1 | LAI |  |  |  | 70 µM
Cc1cn([C@H]2O[C@H](CO)C=C2F)c(=O)nc1N | LAV |  | RT activity |  | >100 µM
Nc1ncnc2c1ncn2[C@H]1CC[C@@](F)(CCP(=O)(O)O)C1 | LAI |  | RT activity |  | 47.9 µM
Cc1cn([C@H]2C[C@H](N=[N+]=[N-])[C@@H](CO)O2)c(=O)[nH]c1=O | D34 |  | p24 |  | <0.04 µM
CC(C)(C)NC(=O)[C@@H]1C[C@@H]2CCCC[C@@H]2CN1C[C@@H](O)[C@H](Cc1ccccc1)NC(=O)[C@H](CC(N)=O)NC(=O)c1ccc2ccccc2n1 | ERS104PRE(PR-L63P) Clinical isolate | PR-L63P | p24 |  | 0.01 µM